Data published in publication PMC6906086.

The sequences below were run against Lsr2 (Mycobacterium tuberculosis H37Rv) (UniProt P9WIP7) (assay: EMSA). Details: shift above 1.9 uM; recombinant protein.

| Sequence | binding result |
| --- | --- |
| CTACCACATTAATCGGCATC (double strand) [rv1669 site] | binds |
| GTCTTCCAATTGTCCTTCGG / CCGAAGGACAATTGGAAGA [rv0248c site] | binds |
| TGTGGCGATTTATCGTGCCG (double strand) [rv1306 site] | binds |

For at least one entry, the source does not settle the construct or the ends of the probe. At least one verdict was read from the data and is not stated in words by the source.
